Pooled drug test results. Numbers come from NIAID ChemDB, via PubChem.

Shared fields: whole-cell or culture tests; organism: Mycobacterium kansasii

MIC50, MIC90 and the like: level of inhibition, or share of isolates inhibited. Rows are shuffled and stem from different studies. Blank or dashed fields: not listed here.

SMILES	strain or isolate	read by	setting	endpoint	result
O=C(Oc1ccc(Cl)cc1C(=O)Nc1ccc(Br)cc1)c1cnccn1	235/80		21 d	MIC	4 µM
O=C(Nc1ccc(C(F)(F)F)cc1)c1ccc(Cl)cc1OS(=O)(=O)c1ccccc1	235/80		7 d	MIC	2 µM
O=C(Oc1ccc(Cl)cc1C(=O)Nc1ccc(Cl)c(Cl)c1)c1cnccn1	235/80		14 d	MIC	4 µM
O=C(Nc1cccc(Br)c1)c1cc(Cl)ccc1OS(=O)(=O)c1ccccc1	6509/96		21 d	MIC	8 µM
CCCCCCc1ccc(NC(=O)NNC(=O)c2ccncc2)cc1	My 235/80	broth dilution	14 d	MIC100	125 µM
O=C(Nc1ccc(Cl)cc1)c1ccc(Cl)cc1OS(=O)(=O)c1ccccc1	6509/96		14 d	MIC	16 µM
Fc1cc(Nc2nnc(-c3ccncc3)o2)ccc1Br	My 235/80	broth dilution	21 d	MIC100	>125 µM
O=C(NC1CCCCC1)N(C(=O)c1cnccn1)C1CCCCC1	6509/96		14 d	MIC	500 µM
Fc1ccc2oc(=S)n(-c3ccc(C(F)(F)F)cc3)c(=S)c2c1	6509/96		14 d	MIC	8 µM
O=C(Nc1ccc(C(F)(F)F)cc1)c1cc(Cl)ccc1OS(=O)(=O)c1ccccc1	6509/96		14 d	MIC	125 µM
CCCCCCCCc1ccc(NC(=O)NNC(=O)c2ccncc2)cc1	My 6509/96	broth dilution	7 d	MIC100	125 µM
O=C(Nc1cccc(C(F)(F)F)c1)c1ccc(Cl)cc1OS(=O)(=O)c1ccccc1	235/80		7 d	MIC	125 µM
O=C(NNC(=O)c1ccncc1)Nc1ccc(F)c(C(F)(F)F)c1	My 6509/96	broth dilution	21 d	MIC100	125 µM
O=C(Oc1cc(Cl)ccc1C(=O)Nc1ccc(F)cc1)c1cnccn1	6509/96		7 d	MIC	2 µM
O=C(NNC(=O)c1ccncc1)Nc1cc(Cl)cc(Cl)c1	My 6509/96	broth dilution	14 d	MIC100	125 µM
O=C(Oc1cc(Cl)ccc1C(=O)Nc1cccc(Cl)c1)c1cnccn1	235/80		21 d	MIC	4 µM
O=C(NNC(=O)c1ccncc1)Nc1ccc(F)cc1Br	My 235/80	broth dilution	14 d	MIC100	>125 µM
O=C(Oc1ccc(Cl)cc1C(=O)Nc1ccc(Cl)cc1)c1cnccn1	6509/96		21 d	MIC	4 µM
O=C(NNC(=O)c1ccncc1)Nc1ccc(Br)cc1Br	My 6509/96	broth dilution	14 d	MIC100	>125 µM
Fc1cccc(-n2c(=S)oc3ccc(F)cc3c2=S)c1	My 235/80		21 d	MIC	16 µM
O=C(Oc1cc(Cl)ccc1C(=O)Nc1ccc(Cl)cc1)c1cnccn1	6509/96		14 d	MIC	2 µM
O=c1oc2ccc(Br)cc2c(=S)n1-c1ccc(F)cc1	6509/96		14 d	MIC	8 µM
O=C(NNC(=O)c1ccncc1)Nc1ccc(Br)cc1F	My 6509/96	broth dilution	14 d	MIC100	>125 µM
O=c1oc2ccc(F)cc2c(=S)n1-c1ccc(Cl)c(Cl)c1	6509/96		14 d	MIC	2 µM
O=C(Nc1cccc(Br)c1)c1ccc(Cl)cc1OS(=O)(=O)c1ccccc1	6509/96		14 d	MIC	125 µM
Cc1ccc2oc(=S)n(-c3ccc(Br)cc3)c(=S)c2c1	6509/96		14 d	MIC	4 µM
CC(C)(C)c1ccc(NC(=O)NNC(=O)c2ccncc2)cc1	My 235/80	broth dilution	21 d	MIC100	125 µM

Repeating the first 3 entries:

SMILES | strain or isolate | read by | setting | endpoint | result
O=C(Oc1ccc(Cl)cc1C(=O)Nc1ccc(Br)cc1)c1cnccn1 | 235/80 |  | 21 d | MIC | 4 µM
O=C(Nc1ccc(C(F)(F)F)cc1)c1ccc(Cl)cc1OS(=O)(=O)c1ccccc1 | 235/80 |  | 7 d | MIC | 2 µM
O=C(Oc1ccc(Cl)cc1C(=O)Nc1ccc(Cl)c(Cl)c1)c1cnccn1 | 235/80 |  | 14 d | MIC | 4 µM